Compound potency records, mixed from different reports. Data source: NIAID ChemDB in PubChem.

Common to all: tests in culture; species: HIV-1; measure: EC50

Blank or dashed fields: not listed here. ECn is the concentration giving n% inhibition of infection, replication or growth. Rows are shuffled and stem from different studies.

compound	changes	strain	cell line	result
Nc1ccccc1CO[C@H]1C(=O)Nc2ccc(Cl)cc2[C@@]1(C#CC1CC1)C(F)(F)F	-	RF	MT-2	<0.115 µM
Cc1cc(/C=C/C#N)cc(C)c1Nc1nc(Nc2ccc(C#N)cc2)ncc1C(O)n1ccnc1	-	PSI (IIIB)	MT-4	501 µM
O=C1Nc2ccc(F)c(F)c2C(C#Cc2ccoc2)(C(F)(F)F)O1	-	-	-	<0.00321 µM
COCc1nc(Nc2ccc(C#N)cc2)nc(Nc2c(C)cc(/C=C/C#N)cc2C)c1C(=O)N1CCN(CCO)CC1	-	K103N + Y181C	MT4 CMV-EGFP	0.372 µM
O=C(O)C(=O)/C=C(\O)c1cc(Cc2ccccc2)cn(Cc2c(F)cccc2F)c1=O	-	-	MAGI	1.5 µM
O=C1Nc2ccc(Cl)cc2[C@@](C#CC2CC2)(C(F)(F)F)[C@H]1OCc1ccccn1	-	RF	MT-2	<0.14 µM
Nc1ncnc2c1ncn2C/C=C\CO	-	-	PBL	>100 µM
Cc1cc(/C=C/C#N)cc(C)c1Nc1nc(Nc2ccc(C#N)cc2)ncc1C(O)OCCO	-	MDR	MT-4	269 µM
O=C1Nc2ccc(Cl)cc2[C@@](C#CC2CC2)(C(F)(F)F)[C@H]1OCc1cccc(F)c1	-	RF	MT-2	<0.201 µM
Cc1cn([C@@H]2O[C@@H]3CN[C@@]4(OCC(C)(C)C)CS(=O)(=O)O[C@@]34[C@H]2O)c(=O)[nH]c1=O	-	IIIB	MT-4	24.2 µM
CCN1C[C@H](C)N2C(=C(O)C3C(=O)N4Cc5ccc(F)cc5OC/C=C\CCCS(=O)(=O)N(C)C(=N4)C32)C1=O	-	LAII(IIIB)	MT-4	3 µM
COCc1nc(Nc2ccc(C#N)cc2)nc(Nc2c(C)cc(/C=C/C#N)cc2C)c1C(=O)N(C)OC	-	K103N + Y181C	MT4 CMV-EGFP	0.0724 µM
Cc1csc(CC(O)c2cnc(Nc3ccc(C#N)cc3)nc2Nc2c(C)cc(/C=C/C#N)cc2C)n1	-	PSI (IIIB)	MT-4	437 µM
O=C1Nc2ccc(F)c(F)c2C(C#Cc2ccco2)(C(F)(F)F)O1	-	-	-	<0.00379 µM
O=C(O)C(=O)/C=C(\O)c1cc(Cc2cccc(Cl)c2)cn(Cc2ccc(Cl)cc2)c1=O	-	-	MAGI	2.5 µM
COC(O)c1cnc(Nc2ccc(C#N)cc2)nc1Nc1c(C)cc(/C=C/C#N)cc1C	-	L100I + K103N	MT-4	0.00389 µM
COP(=O)(c1cc(C)cc(CCC#N)c1)c1c(C(N)=O)[nH]c2ccc(Cl)c(F)c12	-	BH10	PBMC	0.0004 µM
CC[C@H](C)[C@H](NC(=O)OC(C)(C)C)C(=O)NNc1ccn([C@H]2CC[C@@H](CO)O2)c(=O)n1	-	-	CEM + CEM-SS	>100 µM
CCC#C[C@]1(C(F)(F)F)OCC(=O)Nc2ccc(Cl)cc21	-	RF	MT-2	<0.0091 µM
O=C(O)C(=O)/C=C(\O)c1cc(Cc2ccc(F)cc2)cn(Cc2cccc(F)c2)c1=O	-	-	MAGI	1 µM
O=C1CO[C@](C#Cc2ccoc2)(C(F)(F)F)c2cc(Cl)ccc2N1	-	RF	MT-2	<0.0475 µM
Nc1ccc(CO[C@H]2C(=O)Nc3ccc(Cl)cc3[C@@]2(C#CC2CC2)C(F)(F)F)cc1	RT-L100I K103N	-	MT-2	<3.848 µM
COCc1nc(Nc2ccc(C#N)cc2)nc(Nc2c(C)cc(/C=C/C#N)cc2C)c1C(=O)NC1CC1	-	IIIB	MT4 CMV-EGFP	0.0024 µM
COC[C@@H](c1ccc(C(F)(F)F)cc1)N1CCN(C2(C)CCN(C(=O)c3c(C)ncnc3C)CC2)C[C@@H]1C	M518V F519L V535M	R14/S	TZM-bl	0.0019 µM
O=C(O)C(=O)/C=C(\O)c1cc(Cc2ccccc2)cn(Cc2ccccc2F)c1=O	-	-	MAGI	0.9 µM
C[C@H]1CN(C)C(=O)C2=C(O)C3C(=O)N4Cc5ccc(F)cc5OCCCCCNC(=O)C(=N4)C3N21	-	LAII(IIIB)	MT-4	1.92 µM
C[C@H](Cn1cnc2c(N)ncnc21)OCP(=O)(O)O	HX	-	TZM-bl	3 µM
CCN1C[C@H](C)N2C(=C(O)C3C(=O)N4Cc5ccc(F)cc5OC/C=C\CCS(=O)(=O)N(C)C(=N4)C32)C1=O	-	LAII(IIIB)	MT-4	0.59 µM
COCc1nc(Nc2ccc(C#N)cc2)nc(Nc2c(C)cc(/C=C/C#N)cc2C)c1C(=O)NCCN1CCOCC1	-	MDR	MT4 CMV-EGFP	0.38 µM
COCCOC(O)c1cnc(Nc2ccc(C#N)cc2)nc1Nc1c(C)cc(/C=C/C#N)cc1C	-	MDR	MT-4	151 µM
O=C1Nc2ccc(Cl)cc2C(OCc2ccccc2)(C(F)(F)F)O1	-	-	-	<0.01789 µM
CC(C)N1C[C@H](C)N2C(=C(O)C3C(=O)N4Cc5ccc(F)cc5OCCCCS(=O)(=O)N(C5CC5)C(=N4)C32)C1=O	-	LAII(IIIB)	MT-4	1 µM
Nc1nc2c(ncn2C/C=C\COCP(=O)(O)O)c(=O)[nH]1	-	-	PBL	>100 µM
CCN1C[C@H](C)N2C(=C(O)C3C(=O)N(Cc4ccc(F)c(Cl)c4)N=C(C(=O)NC)C32)C1=O	-	LAII(IIIB)	MT-4	3.4 µM
CCCOC12CS(=O)(=O)OC13[C@@H](CN2)O[C@@H](n1cc(C)c(=O)[nH]c1=O)[C@@H]3O	-	IIIB	MT-4	>250 µM
COCCNC(=O)c1c(COC)nc(Nc2ccc(C#N)cc2)nc1Nc1c(C)cc(/C=C/C#N)cc1C	-	IIIB	MT4 CMV-EGFP	0.00347 µM
Cc1cn([C@@H]2O[C@@H]3CN[C@@]4(OCC5CCOC5)CS(=O)(=O)O[C@@]34[C@H]2O)c(=O)[nH]c1=O	-	IIIB	CEM	20 µM
N#Cc1cc(Cl)cc(Oc2c(Br)ccc(CC(=O)Nc3ccc(S(N)(=O)=O)cc3Cl)c2F)c1	L100I	-	MT-4	0.0003 µM
Cc1cn([C@@H]2O[C@@H]3CN[C@@]4(O)CS(=O)(=O)O[C@@]34[C@H]2O[Si](C)(C)C(C)(C)C)c(=O)[nH]c1=O	-	IIIB	MT-4	>250 µM
Cc1cc(/C=C/C#N)cc(C)c1Nc1nc(Nc2ccc(C#N)cc2)ncc1C(O)C(C)C	-	L100I + K103N	MT-4	0.468 µM
O=C1CO[C@](C#Cc2ccccc2)(C(F)(F)F)c2cc(Cl)ccc2N1	-	RF	MT-2	<0.0243 µM
COCCNC(=O)c1c(COC)nc(Nc2ccc(C#N)cc2)nc1Oc1c(C)cc(/C=C/C#N)cc1C	-	K103N + Y181C	MT4 CMV-EGFP	0.0692 µM
O=C(O)C(=O)/C=C(\O)c1cc(Cc2ccc(F)c(Cl)c2)cn(Cc2ccccc2F)c1=O	-	-	MAGI	2.2 µM
CC(C)=CCOC1(C(F)(F)F)OC(=O)Nc2ccc(F)cc21	-	-	-	<0.00298 µM
CCN1C[C@H](C)N2C(=C(O)C3C(=O)N4Cc5ccc(F)cc5OCCCCCS(=O)(=O)N(CC)C(=N4)C32)C1=O	-	LAII(IIIB)	MT-4	0.5 µM
Nc1ccn([C@H]2CC[C@@H](CO)O2)c(=O)n1	-	-	CEM + CEM-SS	0.023 µM
COC(=O)N[C@H]1C(=O)Nc2ccc(Cl)cc2[C@@]1(C#CC1CC1)C(F)(F)F	-	RF	MT-2	<0.212 µM
CC[C@H]1O[C@](C#CC2CC2)(C(F)(F)F)c2cc(F)ccc2NC1=O	-	RF	MT-2	<0.0874 µM
COCc1nc(Nc2ccc(C#N)cc2)nc(Nc2c(C)cc(/C=C/C#N)cc2C)c1C(=O)N1CCC(O)CC1	-	MDR	MT4 CMV-EGFP	6.17 µM
O=C1Nc2ccc(F)cc2C(OCC=C(Cl)Cl)(C(F)(F)F)O1	-	-	-	<0.01194 µM
O=C1CC(C#CC2CC2)(C(F)(F)F)c2cc(Cl)ccc2N1	RT-L100I	-	MT-2	<0.992 µM
O=C1Nc2ccc(Cl)cc2C(C#Cc2cccnc2)(C(F)(F)F)O1	-	-	-	<0.00367 µM
O=C(O)C(=O)/C=C(\O)c1cc(Cc2ccccc2)cn(Cc2ccccc2)c1=O	-	-	MAGI	2.1 µM
CCN1C[C@H](C)N2C(=C(O)C3C(=O)N4Cc5ccc(F)cc5OCCCCN(C)C(=O)C(=N4)C32)C1=O	-	LAII(IIIB)	MT-4	13.87 µM
CCOC1(C(F)(F)F)OC(=O)Nc2ccc(Cl)cc21	RT-K103N	-	-	<0.1392 µM
O=C(O)C(=O)/C=C(\O)c1cc(Cc2ccc(F)cc2)cn(Cc2c(F)cccc2F)c1=O	-	-	MAGI	1.4 µM
Cc1cn(C/C=C\COCP(=O)(O)O)c(=O)[nH]c1=O	-	-	MT-4	>100 µM
O=C1Nc2ccc(F)cc2C(C#Cc2ccco2)(C(F)(F)F)O1	-	-	-	<0.00258 µM

The last 8 rows once more:

compound | changes | strain | cell line | result
O=C1CC(C#CC2CC2)(C(F)(F)F)c2cc(Cl)ccc2N1 | RT-L100I | - | MT-2 | <0.992 µM
O=C1Nc2ccc(Cl)cc2C(C#Cc2cccnc2)(C(F)(F)F)O1 | - | - | - | <0.00367 µM
O=C(O)C(=O)/C=C(\O)c1cc(Cc2ccccc2)cn(Cc2ccccc2)c1=O | - | - | MAGI | 2.1 µM
CCN1C[C@H](C)N2C(=C(O)C3C(=O)N4Cc5ccc(F)cc5OCCCCN(C)C(=O)C(=N4)C32)C1=O | - | LAII(IIIB) | MT-4 | 13.87 µM
CCOC1(C(F)(F)F)OC(=O)Nc2ccc(Cl)cc21 | RT-K103N | - | - | <0.1392 µM
O=C(O)C(=O)/C=C(\O)c1cc(Cc2ccc(F)cc2)cn(Cc2c(F)cccc2F)c1=O | - | - | MAGI | 1.4 µM
Cc1cn(C/C=C\COCP(=O)(O)O)c(=O)[nH]c1=O | - | - | MT-4 | >100 µM
O=C1Nc2ccc(F)cc2C(C#Cc2ccco2)(C(F)(F)F)O1 | - | - | - | <0.00258 µM